PubChem BioAssay AID624099 – ICCB-Longwood | 2012

- Aim: 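Human genes that papillomavirus E2 requires to repress the HPV18 LCR promoter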 (primary screen)
- Cell system: human C33A cervical carcinoma cells (HPV-negative) stably expressing BPV1 E2 and an HPV18 LCR luciferase reporter
- Reagents: siRNA pool against human genes, 40 nM
- Timing: 72 h
- Measured: 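HPV18 LCR reporter light per well, converted to plate-wise z-scores that exclude control wells, and averaged over triplicate plates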
- Reading the numbers: mean z-score and z-score: higher = stronger reporter signal, weaker E2 silencing
- Hit rule: 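Mean z ≥ 2 together with z ≥ 2 in two or more of the three replicates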
The whole screen tested about 21,000 reagents; this is a random part of them. 497 of all reagents (2.4%) were called active. 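Higher z means weaker E2 silencing; only reporter increases were scored, and knock-downs that hurt cell survival may mask genuine repressor factors.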 A number with no mark means an inactive call. Reagents against one gene are numbered here.

gene | reagent | mean z-score | z-score, replicate A | z-score, replicate B | z-score, replicate C
UPK2 | 1 | -1.09 | -1.12 | -1 | -1.14
TRIM6 | 1 | -1.39 | -1.43 | -1.21 | -1.54
RCCD1 | 1 | 0.66 | 0.78 | 0.93 | 0.27
IRF1 | 1 | -0.91 | -0.95 | -0.74 | -1.05
BTF3P11 | 1 | 0.53 | 0.82 | 0.68 | 0.08
SH3BGR | 1 | 0.26 | 0.2 | 0.58 | 0
SLC7A14 | 1 | -1.35 | -1.84 | -1.23 | -0.99
ZNF182 | 1 | 1.06 | 0.93 | 1.23 | 1.02
TREX2 | 1 | 1.69 | 1.85 | 1.82 | 1.41
ZNF823 | 1 | -0.14 | -0.1 | -0.19 | -0.12
RNASE1 | 1 | -0.1 | -0.15 | -0.03 | -0.12
IFI27L2 | 1 | -0.28 | -0.03 | -0.48 | -0.34
AFM | 1 | 0.17 | 0.52 | 0.09 | -0.08
NIPSNAP3A | 1 | 1.59 | 1.57 | 2.04 | 1.16
CD7 | 1 | 0.44 | 0.98 | 0.11 | 0.22
NANOS2 | 1 | -0.28 | -0.22 | -0.1 | -0.52
HYCC2 | 1 | 0.1 | 0.07 | -0.01 | 0.23
YIF1A | 1 | -0.01 | 0.04 | -0.17 | 0.09
RAB40A | 1 | -0.57 | -0.65 | -0.33 | -0.73
EIF2B3 | 1 | -0.52 | -0.74 | -0.48 | -0.34
CCDC71L | 1 | 0.3 | 0.16 | 0.43 | 0.32
HLCS | 1 | 0.61 | 0.52 | 0.31 | 1
SLC39A5 | 1 | 0.06 | 0.3 | 0.23 | -0.34
MON2 | 1 | -0.55 | -0.69 | -0.83 | -0.14
SMAD9 | 1 | -0.8 | -0.84 | -0.79 | -0.79
MFNG | 1 | -0.71 | -0.43 | -1.04 | -0.66
RFX1 | 1 | 0.09 | 0.07 | 0.24 | -0.05
PURPL | 1 | -0.39 | -0.49 | -0.21 | -0.46
SLC29A3 | 1 | -0.04 | -0.12 | 0.54 | -0.55
FAM227A | 1 | -0.25 | -0.3 | -0.26 | -0.2
SESTD1 | 1 | -0.43 | -0.48 | -0.84 | 0.03
MEAK7 | 1 | -0.92 | -1.05 | -1.03 | -0.68
TFCP2 | 1 | -0.09 | -0.21 | -0.19 | 0.12
SIPA1 | 1 | -0.72 | -0.87 | -0.37 | -0.91
IFNW1 | 1 | -0.98 | -0.92 | -0.93 | -1.08
PLA2G6 | 1 | -0.57 | -0.72 | -0.47 | -0.52
TFRC | 1 | 1 | 0.78 | 0.79 | 1.43
ATM | 1 | -0.5 | -0.76 | -0.07 | -0.68
FBH1 | 1 | 0.28 | 0.36 | 0.07 | 0.41
PLA2G10 | 1 | -0.86 | -1.07 | -0.85 | -0.65
ZFP1 | 1 | -0.1 | -0.35 | 0.33 | -0.27
COA6 | 1 | -0.54 | -0.38 | -0.69 | -0.55
IGHM | 1 | 1.64 | 1.76 | 1.4 | 1.76
LOC401216 (retired record) | 1 | -0.6 | -0.62 | -0.6 | -0.57
GOLGA6L5P | 1 | 0.94 | 0.99 | 0.67 | 1.17
GOLGA6L5P | 2 | 2.74 (active) | 2.47 | 2.7 | 3.05
ISCA2 | 1 | 0.5 | 0.72 | 0.43 | 0.34
SAP30 | 1 | 0.02 | -0.3 | 0.08 | 0.28
ZIK1 | 1 | 0.16 | -0.28 | 0.63 | 0.14
DNAJC30 | 1 | 0.09 | 0.03 | -0.03 | 0.28
CLDN12 | 1 | 0.17 | 0.1 | 0.1 | 0.3
ZNF90 | 1 | 1.41 | 1.35 | 1.35 | 1.53
INCENP | 1 | 0.59 | 0.72 | 0.58 | 0.46
AP4S1 | 1 | 0.25 | 0.24 | 0.21 | 0.29
TMEM255A | 1 | -0.66 | -0.7 | -0.51 | -0.78
LOC388351 (retired record) | 1 | 1.23 | 1.47 | 1.42 | 0.79
TSC1 | 1 | -0.72 | -0.1 | -1.07 | -1

Reformatted: 8 of the entries above
gene	reagent	mean z-score	z-score, replicate A	z-score, replicate B	z-score, replicate C
SLC7A14	1	-1.35	-1.84	-1.23	-0.99
ZNF182	1	1.06	0.93	1.23	1.02
TREX2	1	1.69	1.85	1.82	1.41
ZNF823	1	-0.14	-0.1	-0.19	-0.12
RNASE1	1	-0.1	-0.15	-0.03	-0.12
IFI27L2	1	-0.28	-0.03	-0.48	-0.34
AFM	1	0.17	0.52	0.09	-0.08
NIPSNAP3A	1	1.59	1.57	2.04	1.16
